PubChem BioAssay AID624099 | ICCB-Longwood | 2012
Purpose: 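Host factors E2 relies on to silence an HPV18 LCR reporter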 (primary screen). Cells: human C33A cervical carcinoma cells (HPV-negative) stably expressing BPV1 E2 and an HPV18 LCR luciferase reporter. Reagents: siRNA pool against human genes, 40 nM. Time to read-out: 72 h. Detection: 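Per-well luciferase luminescence, z-scored on each plate against the plate mean and SD with control wells left out, then averaged across three replicate plates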. Direction: mean z-score and z-score: higher = stronger reporter signal, weaker E2 silencing. Hit rule: 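Hit if mean z-score reaches 2 and two or more of three replicate z-scores also reach 2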.
The deposit covers about 21,000 reagents; below is a random part of them. 497 of them (2.4%) were called active. 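Higher z means weaker E2 silencing; only reporter increases were scored, and knock-downs that hurt cell survival may mask genuine repressor factors.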 Reagents against one gene are numbered here.

gene	reagent no.	mean z-score	z-score, replicate A	z-score, replicate B	z-score, replicate C	outcome
LOC390877 (adenylate kinase isoenzyme 1-like)	1	0.28	0.2	0.09	0.54	inactive
TMEM52B (transmembrane protein 52B)	1	0.67	0.61	1.28	0.12	inactive
LOC388903 (retired record)	1	0.28	0.12	0.61	0.12	inactive
LOC285047 (retired record)	1	-0.32	0.17	-0.55	-0.58	inactive
CLDN15 (claudin 15)	1	0.85	0.83	0.9	0.83	inactive
TXNL4A (thioredoxin like 4A)	1	0.9	1.08	0.84	0.79	inactive
SPTLC1 (serine palmitoyltransferase long chain base subunit 1)	1	-0.16	-0.9	-0.16	0.59	inactive
ZSWIM2 (zinc finger SWIM-type containing 2)	1	0.35	0.74	0.13	0.17	inactive
C11orf96 (chromosome 11 open reading frame 96)	1	-0.19	0.11	-0.4	-0.28	inactive
GRID2 (glutamate ionotropic receptor delta type subunit 2)	1	0.44	0.36	0.5	0.46	inactive
ITGA3 (integrin subunit alpha 3)	1	2.42	2.36	2.37	2.53	active
DLK2 (delta like non-canonical Notch ligand 2)	1	-1.15	-1.26	-1.16	-1.02	inactive
EDEM1 (ER degradation enhancing alpha-mannosidase like protein 1)	1	0.04	0.27	-0.19	0.03	inactive
GATD3 (glutamine amidotransferase class 1 domain containing 3)	1	-0.53	-0.74	-0.52	-0.33	inactive
NLRP8 (NLR family pyrin domain containing 8)	1	-0.69	-0.69	-0.62	-0.74	inactive
SLC35B3	1	-0.65	-0.63	-0.91	-0.42	inactive
SLC25A30	1	-0.74	-1.11	-0.69	-0.43	inactive
TMEM116 (transmembrane protein 116)	1	-0.78	-0.93	-0.51	-0.9	inactive
ELFN1	1	-0.14	-0.12	-0.1	-0.2	inactive
ELFN1	2	-0.2	0.02	-0.11	-0.5	inactive
GPM6A (glycoprotein M6A)	1	0.19	0.33	0.34	-0.11	inactive
OR1D2 (olfactory receptor family 1 subfamily D member 2)	1	-0.61	-0.62	-0.94	-0.28	inactive
G3BP2 (G3BP stress granule assembly factor 2)	1	0.07	-0.12	0.17	0.18	inactive
TEX56P (testis expressed 56, pseudogene)	1	0.19	0.26	-0.05	0.37	inactive
CEP57 (centrosomal protein 57)	1	1.16	1.26	1.01	1.19	inactive
DSG1 (desmoglein 1)	1	-0.62	-0.45	-0.82	-0.6	inactive
PRDM16 (PR/SET domain 16)	1	-0.81	-0.6	-0.95	-0.88	inactive
TOMM20 (translocase of outer mitochondrial membrane 20)	1	0.51	0.74	0.34	0.45	inactive
NRCAM (neuronal cell adhesion molecule)	1	1.24	1.49	1.22	1	inactive
HOOK3 (hook microtubule tethering protein 3)	1	-2.41	-2.5	-2.84	-1.89	inactive
ZBED11 (zinc finger BED-type containing 11)	1	1.88	1.81	1.98	1.87	inactive
UTRN (utrophin)	1	0.47	0.39	0.4	0.63	inactive
ZNF768 (zinc finger protein 768)	1	-0.18	-0.43	-0.14	0.03	inactive
DUSP3 (dual specificity phosphatase 3)	1	0.71	0.79	0.64	0.69	inactive
FCRL2 (Fc receptor like 2)	1	-3.09	-3.16	-3.05	-3.07	inactive
AXIN2 (axin 2)	1	0	-0.34	0.27	0.09	inactive
SERPINA3 (serpin family A member 3)	1	0.54	0.63	0.63	0.35	inactive
UBA5 (ubiquitin like modifier activating enzyme 5)	1	0.65	1.06	0.86	0.02	inactive
LOC341370 (retired record)	1	0.25	0.14	-0.03	0.65	inactive

6 entries from above, showing only “mean z-score”.
SPTLC1 (serine palmitoyltransferase long chain base subunit 1)	-0.16
ZSWIM2 (zinc finger SWIM-type containing 2)	0.35
C11orf96 (chromosome 11 open reading frame 96)	-0.19
GRID2 (glutamate ionotropic receptor delta type subunit 2)	0.44
ITGA3 (integrin subunit alpha 3)	2.42
DLK2 (delta like non-canonical Notch ligand 2)	-1.15
